# Data taken from US20060165717A1 (priority 2005, published 2006).
# Tested on: Balb/c mice
# Test: Immunization of mice with recombinant Helicobacter pylori urease vaccine compositions; urease-specific IgG1 and IgG2a by ELISA
# Conditions: 10 μg urease + 200 μg adjuvant
# [1] = Exp. 1, newborn (1-week-old) Balb/c mice, 2 subcutaneous injections D0, D21
# [2] = Exp. 2, newborn (1-week-old) Balb/c mice, 2 subcutaneous injections D0, D21
# [3] = Exp. 3, newborn (1-week-old) Balb/c mice, 3 subcutaneous injections D0, D21, D36
# [4] = Exp. 4, newborn (1-week-old) Balb/c mice, 3 subcutaneous injections D0, D21, D36
substance,measurement,setting,value
"3β-[N-(N′,N′-dimethyl-aminoethane)carbamoyl]cholesterol",IgG1 After 1st booster,[1],4.89 log10 of the ELISA titers
same,IgG1 After 1st inj.,[1],3.74 log10 of the ELISA titers
same,IgG2a After 1st booster,[1],2.41 log10 of the ELISA titers
same,IgG2a After 1st inj.,[1],2.18 log10 of the ELISA titers
same,IgG1 After 1st booster,[2],4.50 log10 of the ELISA titers
same,IgG1 After 1st inj.,[2],3.07 log10 of the ELISA titers
same,IgG2a After 1st booster,[2],2.69 log10 of the ELISA titers
same,IgG2a After 1st inj.,[2],1.30 log10 of the ELISA titers
same,IgG1 After 1st booster,[3],4.36 log10 of the ELISA titers
same,IgG1 After 1st inj.,[3],3.16 log10 of the ELISA titers
same,IgG1 After 2nd booster,[3],4.73 log10 of the ELISA titers
same,IgG2a After 1st booster,[3],2.78 log10 of the ELISA titers
same,IgG2a After 1st inj.,[3],2.70 log10 of the ELISA titers
same,IgG2a After 2nd booster,[3],3.55 log10 of the ELISA titers
same,IgG1 After 1st inj.,[4],3.22 log10 of the ELISA titers
same,IgG1 After 2nd booster,[4],4.64 log10 of the ELISA titers
same,IgG2a After 1st inj.,[4],1.79 log10 of the ELISA titers
same,IgG2a After 2nd booster,[4],3.32 log10 of the ELISA titers
same,"antibody production compared with aluminum oxyhydroxide, in words",adult Balb/c mice,as good an adjuvant as aluminum oxyhydroxide
same,"amount of urease-specific antibodies induced, compared with aluminum oxyhydroxide, in words",newborn (1-week-old) Balb/c mice,greater amount of antibodies
